# Share of PSTVd stem 15 variants by leaf site

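Three N. benthamiana plants were inoculated with the whole mutant pool. Progeny were sequenced from the inoculated region (day 5), the margin of the inoculated leaf (day 10) and systemic leaves (day 12).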

PSTVd intermediate strain, stem 15: wild type CUGGAGCGAUCGCUUCGG, pool pattern CUGGAGCGAUNGNNUNNG; upper and lower strand joined, each 5' to 3', the first 9 letters being the upper strand.

Numbers give reads per thousand; 0 = not seen among the reads, higher = more abundant. Each site shows the three plants. "Pool" is the share in the plasmid pool used as inoculum, on the same scale. The inoculated region was read from the minus strand, the other sites from the plus strand. Samples held 36,693 to 63,082 reads, so the smallest values rest on one or two reads.

* CUGGAGCGAUCGAGUCGG (pool 0.695) = inoculated region 0.196 / 0.314 / 0.279; leaf margin 0.103 / 0.0273 / 0; systemic leaves 0 / 0 / 0
* CUGGAGCGAUCGAAUAGG (pool 1.00) = inoculated region 0.313 / 0.209 / 0.447; leaf margin 0.0620 / 0 / 0.0159; systemic leaves 0 / 0 / 0
* CUGGAGCGAUCGGAUCCG (pool 0.857) = inoculated region 0.176 / 0.230 / 0.298; leaf margin 0.0620 / 0.0545 / 0.0159; systemic leaves 0 / 0 / 0
* CUGGAGCGAUAGGUUUCG (pool 1.21) = inoculated region 0.489 / 0.356 / 0.279; leaf margin 0 / 0.0545 / 0.0159; systemic leaves 0 / 0 / 0
* CUGGAGCGAUUGCCUUGG (pool 1.13) = inoculated region 2.39 / 1.21 / 1.75; leaf margin 0.641 / 0.572 / 1.17; systemic leaves 0.911 / 0.731 / 0
* CUGGAGCGAUCGGGUCGG (pool 2.47) = inoculated region 3.48 / 3.27 / 3.70; leaf margin 0.124 / 0.191 / 0.0476; systemic leaves 0.218 / 0 / 0.0598
* CUGGAGCGAUGGGCUCAG (pool 0.857) = inoculated region 0.196 / 0.272 / 0.242; leaf margin 0.0207 / 0.0545 / 0.0317; systemic leaves 0 / 0 / 0
* CUGGAGCGAUUGAGUUGG (pool 0.727) = inoculated region 0.333 / 0.230 / 0.354; leaf margin 0.0414 / 0.0818 / 0.0159; systemic leaves 0 / 0 / 0
* CUGGAGCGAUCGGAUGGG (pool 0.970) = inoculated region 0.313 / 0.356 / 0.298; leaf margin 0.0620 / 0.0273 / 0.0159; systemic leaves 0 / 0 / 0
* CUGGAGCGAUGGAUUCUG (pool 0.970) = inoculated region 0.254 / 0.230 / 0.316; leaf margin 0 / 0 / 0.0159; systemic leaves 0 / 0 / 0
* CUGGAGCGAUCGAGUACG (pool 0.840) = inoculated region 0.274 / 0.293 / 0.279; leaf margin 0.0620 / 0 / 0; systemic leaves 0 / 0 / 0
* CUGGAGCGAUUGGAUUUG (pool 0.727) = inoculated region 0.196 / 0.188 / 0.279; leaf margin 0.103 / 0.0545 / 0.0159; systemic leaves 0 / 0 / 0
* CUGGAGCGAUAGCGUGUG (pool 0.921) = inoculated region 0.254 / 0.147 / 0.447; leaf margin 0 / 0.0545 / 0.0317; systemic leaves 0 / 0 / 0
* CUGGAGCGAUUGGAUUGG (pool 0.824) = inoculated region 0.333 / 0.188 / 0.279; leaf margin 0.0620 / 0.0818 / 0.0317; systemic leaves 0 / 0 / 0
* CUGGAGCGAUGGCAUAAG (pool 0.954) = inoculated region 0.196 / 0.335 / 0.391; leaf margin 0.0620 / 0.109 / 0.0317; systemic leaves 0 / 0 / 0
* CUGGAGCGAUCGCCUUAG (pool 1.05) = inoculated region 1.92 / 1.13 / 1.32; leaf margin 0.682 / 0.572 / 0.856; systemic leaves 1.11 / 0.620 / 0
* CUGGAGCGAUAGUUUUAG (pool 0.937) = inoculated region 2.62 / 1.05 / 1.41; leaf margin 0.641 / 0 / 0.745; systemic leaves 1.07 / 0 / 0
* CUGGAGCGAUCGUCUGGG (pool 0.760) = inoculated region 0.254 / 0.272 / 0.112; leaf margin 0.0620 / 0.0273 / 0; systemic leaves 0 / 0 / 0
* CUGGAGAGAUAGCUUUGG (pool 0.0162) = inoculated region 0 / 0 / 0; leaf margin 0 / 0 / 0; systemic leaves 0 / 0 / 0
* CGGGAGCGAUAGCAUCCG (pool 0.0162) = inoculated region 0 / 0 / 0; leaf margin 0 / 0 / 0; systemic leaves 0 / 0 / 0
* CUGGAGCGAUUGUUUAAG (pool 0.824) = inoculated region 2.02 / 0.775 / 1.53; leaf margin 0.0414 / 0.0545 / 0.983; systemic leaves 0 / 0 / 0
* CUGGAGCGAUGGGGUUUG (pool 0.824) = inoculated region 0.294 / 0.188 / 0.409; leaf margin 0.103 / 0 / 0.0317; systemic leaves 0 / 0 / 0
* CUGGAGCGAUAGGUUCCG (pool 0.792) = inoculated region 0.274 / 0.209 / 0.298; leaf margin 0.0414 / 0.0545 / 0; systemic leaves 0 / 0 / 0
* CUGGAGCGAUCGAUUAUG (pool 1.08) = inoculated region 0.294 / 0.251 / 0.298; leaf margin 0.0620 / 0 / 0.0317; systemic leaves 0 / 0 / 0
* CUGGAGCGAUGGUGUAAG (pool 0.921) = inoculated region 0.313 / 0.209 / 0.242; leaf margin 0.0414 / 0.0273 / 0.0476; systemic leaves 0 / 0 / 0
* CUGGAGCGAUCGUAUAGG (pool 0.760) = inoculated region 0.176 / 0.314 / 0.242; leaf margin 0.0620 / 0.0273 / 0.0317; systemic leaves 0 / 0 / 0
* CUGGAGCGAUGGUUUUAG (pool 1.00) = inoculated region 1.86 / 1.24 / 1.41; leaf margin 0.620 / 0.0273 / 0.919; systemic leaves 0.990 / 0.953 / 0
* CUGGAGCGAUGGCAUAGG (pool 1.07) = inoculated region 0.294 / 0.293 / 0.335; leaf margin 0.103 / 0.0273 / 0; systemic leaves 0 / 0 / 0

The first 4 entries again:

{"sequence": "CUGGAGCGAUCGAGUCGG", "pool": "0.695", "inoculated region": "0.196 / 0.314 / 0.279", "leaf margin": "0.103 / 0.0273 / 0", "systemic leaves": "0 / 0 / 0"}
{"sequence": "CUGGAGCGAUCGAAUAGG", "pool": "1.00", "inoculated region": "0.313 / 0.209 / 0.447", "leaf margin": "0.0620 / 0 / 0.0159", "systemic leaves": "0 / 0 / 0"}
{"sequence": "CUGGAGCGAUCGGAUCCG", "pool": "0.857", "inoculated region": "0.176 / 0.230 / 0.298", "leaf margin": "0.0620 / 0.0545 / 0.0159", "systemic leaves": "0 / 0 / 0"}
{"sequence": "CUGGAGCGAUAGGUUUCG", "pool": "1.21", "inoculated region": "0.489 / 0.356 / 0.279", "leaf margin": "0 / 0.0545 / 0.0159", "systemic leaves": "0 / 0 / 0"}

The authors trace changes outside the varied positions to PCR and sequencing errors or to mutation in the plant; presence does not show that a variant is infectious alone. For reference, wild type rose from 10.2 per thousand in the pool to 285, 367, 312 (inoculated region), 785, 865, 782 (leaf margin) and 854, 898, 915 (systemic leaves).

From the data files of Wu et al. 2024, doi:10.1371/journal.ppat.1012142.